B1: CR8020 (antibody, V domains shown)
VH: EVQLQQSGAEVKTPGASVKVSCKASGYTFTSFGVSWIRQAPGQGLEWIGWISAYNGDTYYAQKFQARVTMTTDTSTTTAYMEMRSLRSDDTAVYYCAREPPLFYSSWSLDNWGQGTLVTVSS
VL: EIVMTQSPGTLSLSPGERATLSCRASQSVSMNYLAWFQQKPGQAPRLLIYGASRRATGIPDRISGSGSGTDFTLTISRLEPADFAVYYCQQYGTSPRTFGQGAKVEIKR
B2: P04 (antibody, V domains shown)
VH: EVQLVESGGGLVQPGGSLRLSCAASGFTINSWSIHWVRQAPGKGLEWVASIWPFGGFTFYADSVKGRFTISADTSKNTAYLQMNSLRAEDTAVYYCARGYSSFGDYWGQGTLVTVSS
VL: DIQMTQSPSSLSASVGDRVTITCRASQDVNGSVAWYQQKPGKAPKLLISSSASLYSGVPSRFSGSGSGTDFTLTISSLQPEDFATYYCQQGWSYPLTFGQGTKVEIKR
B3: P26 (antibody, V domains shown)
VH: EVQLVESGGGLVQPGGSLRLSCAASGFTIDNSWIHWVRQAPGKGLEWVASIGPYWGYTSYADSVKGRFTISADTSKNTAYLQMNSLRAEDTAVYYCARFVFFLPYAMDYWGQGTLVTVSS
VL: DIQMTQSPSSLSASVGDRVTITCRASQDVWSGVAWYQQKPGKAPKLLIYGTTYLYSGVPSRFSGSGSGTDFTLTISSLQPEDFATYYCQQYYSFLLTFGQGTKVEIKR
B4: P01 (antibody, V domains shown)
VH: EVQLVESGGGLVQPGGSLRLSCAASGFTIGDGSIHWVRQAPGKGLEWVAWIGPYGGSTFYADSVKGRFTISADTSKNTAYLQMNSLRAEDTAVYYCARFFWGINMDYWGQGTLVTVSS
VL: DIQMTQSPSSLSASVGDRVTITCRASQDVGWYVAWYQQKPGKAPKLLIYGSTFLYSGVPSRFSGSGSGTDFTLTISSLQPEDFATYYCQQYYDSPLTFGQGTKVEIKR
B5: P06 (antibody, V domains shown)
VH: EVQLVESGGGLVQPGGSLRLSCAASGFTIGGYWIHWVRQAPGKGLEWVAGIGPYWGSTYYADSVKGRFTISADTSKNTAYLQMNSLRAEDTAVYYCARFNNWFWNVMDYWGQGTLVTVSS
VL: DIQMTQSPSSLSASVGDRVTITCRASQDVGGGVAWYQQKPGKAPKLLISGTSGLYSGVPSRFSGSGSGTDFTLTISSLQPEDFATYYCQQSSNFPITFGQGTKVEIKR
B6: P05 (antibody, V domains shown)
VH: EVQLVESGGGLVQPGGSLRLSCAASGFTINDYGIHWVRQAPGKGLEWVAGIWPYWGFTFYADSVKGRFTISADTSKNTAYLQMNSLRAEDTAVYYCARFHGSSYYSVMDYWGQGTLVTVSS
VL: DIQMTQSPSSLSASVGDRVTITCRASQDVGSSVAWYQQKPGKAPKLLISSSPYLYSGVPSRFSGSGSGTDFTLTISSLQPEDFATYYCQQYYDYPLTFGQGTKVEIKR
B7: P37 (antibody, V domains shown)
VH: EVQLVESGGGLVQPGGSLRLSCAASGFTFNSWGIHWVRQAPGKGLEWVAGIWPYWGFTYYADSVKGRFTISADTSKNTAYLQMNSLRAEDTAVYYCARFHGSSYYSVMDYWGQGTLVTVSS
VL: DIQMTQSPSSLSASVGDRVTITCRASQDVGNDVAWYQQKPGKAPKLLISSARGLYSGVPSRFSGSGSGTDFTLTISSLQPEDFATYYCQQYYNFPITFGQGTKVEIKR
B8: P12 (antibody, V domains shown)
VH: EVQLVESGGGLVQPGGSLRLSCAASGFTIGDYYIHWVRQAPGKGLEWVAGIGPSWGSTSYADSVKGRFTISADTSKNTAYLQMNSLRAEDTAVYYCARFYNNHWGFMDYWGQGTLVTVSS
VL: DIQMTQSPSSLSASVGDRVTITCRASQDVGYWVAWYQQKPGKAPKLLIYWTSGLYSGVPSRFSGSGSGTDFTLTISSLQPEDFATYYCQQYSNWPITFGQGTKVEIKR
B9: P11 (antibody, V domains shown)
VH: EVQLVESGGGLVQPGGSLRLSCAASGFTISSFWIHWVRQAPGKGLEWVAGIGPFWGSTFYADSVKGRFTISADTSKNTAYLQMNSLRAEDTAVYYCARFNDWFYHGMDYWGQGTLVTVSS
VL: DIQMTQSPSSLSASVGDRVTITCRASQDVDNNVAWYQQKPGKAPKLLISYASWLYSGVPSRFSGSGSGTDFTLTISSLQPEDFATYYCQQSSGGPVTFGQGTKVEIKR
B10: F10 (antibody, V domains shown)
VH: QVQLVQSGAEVKKPGSSVKVSCTSSEVTFSSFAISWVRQAPGQGLEWLGGISPMFGTPNYAQKFQGRVTITADQSTRTAYMDLRSLRSEDTAVYYCARSPSYICSGGTCVFDHWGQGTLVTVSA
VL: IQPGLTQPPSVSKGLRQTATLTCTGNSNNVGNQGAAWLQQHQGHPPKLLSYRNNDRPSGISERFSASRSGNTASLTITGLQPEDEADYYCSTWDSSLSAVVFGGGTKLTVLG

A word on the EC50: it is the concentration giving half of the maximal effect.

For one experiment, the target named is recombinant H7N9 AH/13 HA trimer (hemagglutinin ectodomain of A/Anhui/1-BALF_RG17/2013) (influenza A virus A/Anhui/1-BALF_RG17/2013 (H7N9)). Briefly: ELISA, coated HA. (In an ELISA, binding on a coated surface is turned into a signal by an enzyme label.)
Consider B1, for which the EC50 stood at 0.069 µg/mL.

The next experiment concerns the target full-length H5 A/Vietnam/1203/2004 HA expressed on 293T cells (influenza A virus A/Vietnam/1203/2004 (H5N1)). The experiment is described as follows: flow cytometry, HA-expressing 293T. (A flow cytometer gives signals particle by particle.)
Molecule FI6V3 (antibody) yielded an EC50 of 0.61 µg/mL.

As to B2, the EC50 was 3.26 µg/mL.

B3 showed an EC50 of 0.65 µg/mL.

B4: the EC50 was 5.94 µg/mL.

Molecule B5 had an EC50 of 0.26 µg/mL.

For B6, the EC50 stood at 0.19 µg/mL.

As for B7, the EC50 turned out to be 1.18 µg/mL.

For the molecule B8, the EC50 was 6.54 µg/mL.

With B9, the EC50 is 2.42 µg/mL.

On to B10, for which the EC50 was 0.59 µg/mL.

Values taken from patent US20210070843A1.
